Earlier results, collected in patent publication US20060229204A1, “Control of sulfhydryl compound odor in organothiophosphate formulations” (published 2006).

Details: pH 5-9, 25° C.

Structure (SMILES): CC(C)OP(=S)(OC(C)C)SCCNS(=O)(=O)c1ccccc1
- DT50: > 200 days
